Anti-infective test results gathered from many reports (values: NIAID ChemDB through PubChem).

All rows: whole-cell or culture tests; species: Rhinovirus; method: cytopathic effect; read-out: EC50

ECn is the concentration giving n% inhibition of infection, replication or growth. Lines come from different laboratories, so protocols vary.

SMILES,strain,cell line,value
CCOC(=O)c1ccc(OCCC2CCN(c3ccc(C)nn3)CC2)cc1,Serotype 16,HeLa,<0.1 µg/mL
CCOc1ccc(-c2cc(N3CCCCC3)no2)c(O)c1,Serotype 14,HeLa,>347 µM
CS(=O)(=O)c1ccc(Cc2ccc(Cl)c(Cl)c2)nc1,TYPE 21,HeLa,>10 µg/mL
CSc1nsc(-c2ccc(OCCOc3ccccc3)cc2)c1C#N,Serotype 29 (group B),HELA-OHIO,>20 µM
CCS(=O)(=O)c1ccc(Cc2ccc(Cl)c(Cl)c2)nc1,TYPE 2,HeLa,1.3 µg/mL
CCOc1cc(OC)ccc1-c1cc(N(CC)CC)no1,Serotype 70 (group A),HeLa,55.2 µM
Cc1c(-c2ccccc2)n(-c2ccc(F)cc2)c2ccc(C(C)C)cc2c1=O,TYPE 89/41617-GALLO,HELA-OHIO,0.011 µg/mL
C#CCOc1cc(OC)ccc1-c1cc(N(CC)CC)no1,Serotype 42 (group A),HeLa,>40 µM
COCc1cc(CCCOc2c(Cl)cc(-c3noc(C)n3)cc2Cl)on1,Serotype 86,HeLa,0.072 µg/mL
CS(=O)(=O)c1ccc(Cc2ccc(Cl)cc2)nc1,TYPE 64,HeLa,1.3 µg/mL
CCOC(=O)c1ccc(OCCCCOc2ccc(-c3snc(SC)c3C#N)cc2)cc1,Serotype 2 (group B),HELA-OHIO,>2 µM
CSc1nsc(-c2ccc(OC(C)(C)C)cc2)c1C#N,Serotype 89 (group B),HELA-OHIO,2.5 µM
CCS(=O)(=O)c1ccc(NCc2ccc(Cl)c(Cl)c2)nc1,TYPE 1A,HeLa,>10 µg/mL
CCn1c2c(c(=O)c3cc(C(C)C)ccc31)Cc1ccccc1-2,41/56110,HELA-OHIO,0.2 µg/mL
CCN(CC)c1cc(-c2ccc(OC)cc2OC)on1,Serotype 63 (group B),HeLa,>362 µM
COC(=O)c1cc(CCCOc2c(C)cc(-c3noc(C)n3)cc2C)on1,Serotype 15,HeLa,0.148 µg/mL
CCSc1ccc(Oc2ccc(C(=O)c3ccccc3)cc2)nc1C#N,TYPE 1A,HeLa,>10 µg/mL
COc1ccc(-c2cc(N3CCCC3)no2)c(O)c1,Serotype 70 (group A),HeLa,>384 µM
CS(=O)(=O)c1ccc(NCc2ccc(Cl)c(Cl)c2)nc1,TYPE 74,HeLa,1.3 µg/mL
Cc1c(-c2ccccc2)n(-c2cccc(F)c2)c2ccc(C(C)C)cc2c1=O,14/1059,HELA-OHIO,>1 µg/mL
COc1ccc(-c2snc(SC)c2C#N)cc1,Serotype 41 (group B),HELA-OHIO,>12 µM
CS(=O)(=O)c1ccc(Oc2ccc(C(=O)c3ccccc3)cc2)nc1,TYPE 32,HeLa,5 µg/mL
CSc1nsc(-c2ccc(OCCCc3ccccc3)cc2)c1C#N,Serotype 86 (group A),HELA-OHIO,2 µM
CCS(=O)(=O)c1ccc(Cc2ccc(Cl)c(Cl)c2)nc1C(N)=O,TYPE 64,HeLa,2.5 µg/mL
CSc1nsc(-c2ccc(OCCCCOc3ccc([N+](=O)[O-])cc3)cc2)c1C#N,Serotype 86 (group A),HELA-OHIO,>0.5 µM
CCc1nc(-c2cc(C)c(OCCCc3cc(COC)no3)c(C)c2)no1,Serotype 22,HeLa,0.008 µg/mL
CSc1nsc(-c2ccc(OCCCCOc3ccc(C#N)cc3)cc2)c1C#N,Serotype 14 (group A),HELA-OHIO,>2 µM
CSc1nsc(-c2ccc(O)cc2)c1C#N,Serotype 9 (group B),HELA-OHIO,>10 µM
CSc1nsc(-c2ccc(OCCc3ccccc3)cc2)c1C#N,Serotype 29 (group B),HELA-OHIO,10 µM
O=C(c1ccccc1)c1ccc(Oc2ccc(S(=O)(=O)Cc3ccccc3)cn2)cc1,TYPE 2,HeLa,>10 µg/mL

The first 2 rows once more:

SMILES	strain	cell line	value
CCOC(=O)c1ccc(OCCC2CCN(c3ccc(C)nn3)CC2)cc1	Serotype 16	HeLa	<0.1 µg/mL
CCOc1ccc(-c2cc(N3CCCCC3)no2)c(O)c1	Serotype 14	HeLa	>347 µM